Measured values published in publication PMC8450086.
A negative result means that nothing was seen under these conditions. At least one verdict rests on a figure or table, not on a statement of the authors. The exact form of at least one protein or probe is not confirmed.

Sequences of proteins named here, by UniProt entry; tags and fusion partners are left off. A change or cut given only in a name is not applied to a line headed by its entry.
UniProt Q2HR80: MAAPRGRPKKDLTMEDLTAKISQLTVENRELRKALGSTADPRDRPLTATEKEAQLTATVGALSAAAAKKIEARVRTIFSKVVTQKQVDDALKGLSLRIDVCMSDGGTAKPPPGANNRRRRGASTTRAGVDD

Target: KicGAS (Kaposi sarcoma-associated herpesvirus (KSHV)) (UniProt Q2HR80)
Experiment: fluorescence polarization
Conditions: FP: 400 pg/ul FAM-DNA, buffer and temperature not stated, Hill fits, recombinant protein, residues 1-131, protein details: Avi-His6-SUMO removed (tag-free); for Kd: label: 5' FAM sense strand, letters put together from the description

ACTGATCTGTAC [ssISD12]: no binding (label: 5' FAM, single-stranded DNA).

With “TACAGATCTACTAGTGATCTATGACTGATCTGTAC (double strand) [ISD35]” the Kd (Hill n 1.90) was 270 nM.

“CCATCAAAGAGAGAAAGAGC (double strand) [45% GC]” gave a Kd (Hill n 2.25) of 1080 nM.
